Measurements from paper PMC12714728 (npj Viruses, 2025).

Biological target: hemagglutinin (HA) ectodomain of A/New Caledonia/20/1999 (H1N1) (influenza A virus A/New …, biotin on the BirA site)
Experiment: SPR
Conditions: both partners purified

CYRDPLGVAGEMC (disulfide between the two Cys (sidechain-sidechain cyclization)) [cyclic peptide CP13]
koff: 1.09 s⁻¹
kon: 28400 M⁻¹ s⁻¹
